{
  "source": "ChEMBL document CHEMBL3352527",
  "about": "“Phosphorus-nitrogen compounds. Part 29. Syntheses, crystal structures, spectroscopic and stereogenic properties, electrochemical investigations, antituberculosis, antimicrobial and cytotoxic activities and DNA interactions of ansa-spiro-ansa cyclotetraphosphazenes” (2014)",
  "key": {"[1]": {"test_system": "Escherichia coli", "test": "Binding affinity to Escherichia coli pBR322 plasmid DNA assessed as reduction in mobility of form-1 DNA at 312 to 5000 uM after 24 hrs by agarose gel electrophoresis"}, "[2]": {"test_system": "Pseudomonas aeruginosa", "test": "Antimicrobial activity against Pseudomonas aeruginosa ATCC 27853 after 18 hrs by agar well diffusion assay"}},
  "note": "Active and inactive are the calls of the source. The rule behind the calls is not given here.",
  "data": [
    {"smiles": "ClP1(Cl)=NP(Cl)(Cl)=NP(Cl)(Cl)=NP(Cl)(Cl)=N1", "values": [
      {"measurement": "Activity", "setting": "[1]", "result": "Active"},
      {"measurement": "inhibition zone (IZ)", "setting": "[2]", "result": 9.7, "unit": "mm"}
    ]}
  ]
}
